# For at least one entry, the source does not settle the construct or the ends of the probe.
# Target: CRP (cAMP receptor protein) (UniProt A6TEZ6)
# Assay: EMSA
# Conditions: CRP 1-4 uM, poly(dI-dC) 30 ug/mL, BSA, no cAMP listed in buffer; recombinant protein; protein details: His-tag (pET30b); probe letters rebuilt from the primers and the genome
sequence,measurement,value
ATGAGCGAAGCTAGCGAAAGAGACCAGGGAGAGCATACCGGCAGCGGCGAGTAATTTTACGTTTTTCATGGTGTTTGTCCTTTTAACTTTTATGGTGGAAAGCATGTTTGCTTTCGATGGACTTATAATAAGCCTGCTAACTATAACGCGCGTGGCAAAAAGTGCGATTTAGATCACATTTTTATGGCGGTTTGATGGCGTAAACATGATCGTTTATCTATTTTTTAGTTTAAAAACAATGGATTAATGATTTGTTTCTGAAAGGGGGGATCACATGGGCTGCCCTTGTTCAGGGAGAGGAATGCGCCTCATTCATGCTTTCACCATTCGTTGTGTGAATGGTTTGGTGCTGTTTTCACCACCGCAAAGGCAGATTCAGACTTATCGCGATGGC (double strand) [mrkA upstream region (394 bp)],binding result,binds

# Source: article PMC6629953
